Data as given in PubChem BioAssay AID624099 (ICCB-Longwood, 2012).

- Test: 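Human genes that papillomavirus E2 requires to repress the HPV18 LCR promoter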 (primary screen)
- Cells: human C33A cervical carcinoma cells (HPV-negative) stably expressing BPV1 E2 and an HPV18 LCR luciferase reporter
- Reagents: siRNA pool against human genes, 40 nM
- Duration: 72 h
- Read-out: 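Per-well luciferase luminescence, z-scored on each plate against the plate mean and SD with control wells left out, then averaged across three replicate plates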
- Reading the numbers: mean z-score and z-score: higher = stronger reporter signal, weaker E2 silencing
- Rule for the call: 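Mean z ≥ 2 together with z ≥ 2 in two or more of the three replicates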
In all, the deposit lists about 21,000 reagents; shown is a part drawn at random. 497 of them (2.4%) count as active. 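Higher z means weaker E2 silencing; only reporter increases were scored, and knock-downs that hurt cell survival may mask genuine repressor factors.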 Reagent sequences are not shown.

Silencing of SLC7A10 came out at: mean z-score -1.01; z-score, replicate A = -1.22; z-score, replicate B = -1.07; z-score, replicate C = -0.73; inactive. Against DGKA the deposit lists mean z-score 1.77; z-score, replicate A = 1.97; z-score, replicate B = 1.73; z-score, replicate C = 1.59; inactive. LOC389403 (retired record) scored mean z-score 4.93; z-score, replicate A = 4.48; z-score, replicate B = 5.07; z-score, replicate C = 5.23; active. SLC12A3 gave mean z-score 0.45; z-score, replicate A = 0.3; z-score, replicate B = 0.59; z-score, replicate C = 0.47; inactive. Depletion of STX16 resulted in: mean z-score 1.31; z-score, replicate A = 1.32; z-score, replicate B = 1.32; z-score, replicate C = 1.3; inactive. After knock-down of LYZL2, the record shows mean z-score -1.33; z-score, replicate A = -1.21; z-score, replicate B = -1.34; z-score, replicate C = -1.44; inactive.

After knock-down of VPS53 the results were mean z-score -0.12; z-score, replicate A = -0.72; z-score, replicate B = -0.39; z-score, replicate C = 0.76; inactive. Against TRAM2 the deposit lists mean z-score -0.17; z-score, replicate A = -0.01; z-score, replicate B = -0.14; z-score, replicate C = -0.35; inactive. With knock-down of MAGED2 the results were mean z-score 0.97; z-score, replicate A = 1.13; z-score, replicate B = 0.94; z-score, replicate C = 0.83; inactive. Knock-down of OR2L8 gave: mean z-score 0.32; z-score, replicate A = 0.32; z-score, replicate B = -0.16; z-score, replicate C = 0.79; inactive. Depletion of PRKCE gave: mean z-score 0.34; z-score, replicate A = 0.67; z-score, replicate B = 0.31; z-score, replicate C = 0.04; inactive. MYO1B showed mean z-score 0.33; z-score, replicate A = 0.12; z-score, replicate B = 0.58; z-score, replicate C = 0.3; inactive.

Reagents listed so far called active, once more:
LOC389403 (retired record) — mean z-score = 4.93; z-score, replicate A = 4.48; z-score, replicate B = 5.07; z-score, replicate C = 5.23; activity call = active

Next results follow.
After knock-down of ZNF75D, the record shows mean z-score 0.34; z-score, replicate A = 0.66; z-score, replicate B = 0.19; z-score, replicate C = 0.17; inactive. For DYTN the deposit lists mean z-score 0.45; z-score, replicate A = 0.22; z-score, replicate B = 0.47; z-score, replicate C = 0.65; inactive. LOC388968 (retired record) gave mean z-score 0.35; z-score, replicate A = 0.57; z-score, replicate B = 0.3; z-score, replicate C = 0.17; inactive. Depletion of FPR3 resulted in: mean z-score 0.34; z-score, replicate A = 0.66; z-score, replicate B = 0.1; z-score, replicate C = 0.26; inactive. Against RAB43P1 the deposit lists mean z-score -2.33; z-score, replicate A = -1.97; z-score, replicate B = -2.75; z-score, replicate C = -2.28; inactive. Knock-down of FRMPD4 came out at: mean z-score -0.35; z-score, replicate A = -0.46; z-score, replicate B = -0.31; z-score, replicate C = -0.29; inactive.

With knock-down of OR4E2 the results were mean z-score 1.71; z-score, replicate A = 1.56; z-score, replicate B = 1.37; z-score, replicate C = 2.2; inactive. SPATA12 gave mean z-score -1.41; z-score, replicate A = -0.98; z-score, replicate B = -1.58; z-score, replicate C = -1.67; inactive. With knock-down of RNF152 the results were mean z-score 1.11; z-score, replicate A = 1.16; z-score, replicate B = 1.11; z-score, replicate C = 1.07; inactive.
